PMC6781885

Key:
[1] = biological target: T1, VncRc (VncR C-terminal DNA-binding domain) (Streptococcus pneumoniae D39 (type 2)) (UniProt A0A0H2ZPY6); test: pull-down (anti-His co-IP, PCR); conditions: serum condition not stated; recombinant protein; probe letters rebuilt from the primers and the genome
[2] = biological target: T1, VncRc (VncR C-terminal DNA-binding domain) (Streptococcus pneumoniae D39 (type 2)); test: EMSA; conditions: 10% human serum, 10 mM Mg2+, EMSA: 10 mM Tris-HCl pH 7.9, 10 mM MgCl2, 50 mM NaCl, 100 ug/ml BSA, 10% serum, 5 min at 37 C, 200 ng DNA with equal amount of protein, recombinant protein, probe letters rebuilt from the primers and the genome

Sequence | binding result [1] | binding result ([2]; serum alone also shifts, VncRc supershifts) | binding result [2]
TACACATCTGCTTCTAAAATATTGTTAGAAAACGATTTGACTGTCCTGATCAATTTGTCATGTTCTTATTTCATTTTACTATATTTTTGGTTCGCGGGAAGTCTACTAAGATACTTAAAGATGCAGATAGTGAAAAAAGGTGTAGACATTACCGTAAAAAAGTGATATAATCGTAAGATGTTCAATGTATAGGTGTTAATCATGAGTAGACGTTTTAA (double strand) [cpsp type 2 (D39)] | binds | binds | –
TACACATCTGCTTCTAAAATATTGTTAGAAAACGATTTGACTGTCCTGATCAATTTGTCATGTTCTTATTTCATTTTACTATATTTTTGGTTCGCGGGAAGTCTACTAAGATACTTAAAGATGCAGATAGTGAAAAAAGGTGTAGACATTACCGTAAAAAAGTGATATAATCGTAAGATGTTCAATGTATAGGTGTTAATCATGAGTAGACGTTTTAA (double strand) [cpsp type 6B (BG7322)] | binds | – | binds

Construct, isoform or probe ends are uncertain for at least one entry.
